This data set in a line: activity coefficient (dimensionless); xn = mol fraction of the nth substance listed. The note with it: 101.33 kPa, Liquid, Chromatography, x1 = 0.

Structures are written as SMILES. ± gives the expanded uncertainty stated by the source.

As to `CC1CCCCC1` [methylcyclohexane] + CCCC[N+]1(C)CCCC1.O=S(=O)(F)[N-]S(=O)(=O)F, the activity coefficient (318.15 K) was found to be 19.2 ± 1.3; the activity coefficient (328.15 K) turned out to be 18.6 ± 1.3; the activity coefficient (338.15 K) amounted to 18.1 ± 1.2; the activity coefficient (348.15 K) came to 17.6 ± 1.2; the activity coefficient (358.15 K) turned out to be 17.1 ± 1.2; the activity coefficient (368.15 K) amounted to 16.7 ± 1.1.

Regarding `CCOC(C)(C)C` [2-ethoxy-2-methylpropane] + CCCC[N+]1(C)CCCC1.O=S(=O)(F)[N-]S(=O)(=O)F, the activity coefficient stood at 8.58 ± 0.59 (318.15 K); 8.87 ± 0.61 (328.15 K); 9.16 ± 0.62 (338.15 K); 9.43 ± 0.64 (348.15 K); 9.73 ± 0.66 (358.15 K); 10 ± 0.7 (368.15 K).

With `Cc1ccccc1C` [1,2-dimethylbenzene] + CCCCCCCC[N+](CC)(CC)CC.O=S(=O)(F)[N-]S(=O)(=O)F, the activity coefficient is 0.992 ± 0.062 (318.15 K); 1.06 ± 0.07 (328.15 K); 1.13 ± 0.07 (338.15 K); 1.2 ± 0.08 (348.15 K); 1.27 ± 0.08 (358.15 K); 1.35 ± 0.09 (368.15 K).

With `CCCCO` [butan-1-ol] + CCCC[N+]1(C)CCCC1.O=S(=O)(F)[N-]S(=O)(=O)F, the activity coefficient amounted to 3.63 ± 0.25 (318.15 K); 3.4 ± 0.23 (328.15 K); 3.2 ± 0.22 (338.15 K); 3.02 ± 0.21 (348.15 K); 2.87 ± 0.2 (358.15 K); 2.73 ± 0.19 (368.15 K).

Turning to `C=CCCCCCCCC` [1-decene] + CCCC[N+]1(C)CCCC1.O=S(=O)(F)[N-]S(=O)(=O)F, the activity coefficient by setting is: (318.15 K) 51.1 ± 3.5; (328.15 K) 49.7 ± 3.4; (338.15 K) 48.3 ± 3.3; (348.15 K) 47.1 ± 3.2; (358.15 K) 46.1 ± 3.2; (368.15 K) 45.1 ± 3.1.

`CCCC=O` [butanal] + CCCC[N+]1(C)CCCC1.O=S(=O)(F)[N-]S(=O)(=O)F: the activity coefficient came to 0.972 ± 0.061 (318.15 K); 1.03 ± 0.06 (328.15 K); 1.09 ± 0.07 (338.15 K); 1.15 ± 0.07 (348.15 K); 1.2 ± 0.08 (358.15 K); 1.27 ± 0.08 (368.15 K).

Consider `CO` [methanol] + CCCCCCCC[N+](CC)(CC)CC.O=S(=O)(F)[N-]S(=O)(=O)F, for which the activity coefficient came out at 1.69 ± 0.11 (318.15 K); 1.61 ± 0.11 (328.15 K); 1.54 ± 0.1 (338.15 K); 1.47 ± 0.1 (348.15 K); 1.41 ± 0.09 (358.15 K); 1.35 ± 0.09 (368.15 K).

`c1ccncc1` [pyridine] + CCCC[N+]1(C)CCCC1.O=S(=O)(F)[N-]S(=O)(=O)F: the activity coefficient is 0.639 ± 0.044 (318.15 K); 0.678 ± 0.046 (328.15 K); 0.715 ± 0.048 (338.15 K); 0.754 ± 0.05 (348.15 K); 0.793 ± 0.052 (358.15 K); 0.83 ± 0.053 (368.15 K).

Take `CCC[N+](=O)[O-]` [1-nitropropane] + CCCC[N+]1(C)CCCC1.O=S(=O)(F)[N-]S(=O)(=O)F: the activity coefficient (318.15 K) worked out at 0.834 ± 0.054; the activity coefficient (328.15 K) came to 0.873 ± 0.056; the activity coefficient (338.15 K) worked out at 0.913 ± 0.058; the activity coefficient (348.15 K) came out at 0.952 ± 0.06; the activity coefficient (358.15 K) was 0.991 ± 0.062; the activity coefficient (368.15 K) stood at 1.03 ± 0.06.

Regarding `Cc1ccc(C)cc1` [1,4-dimethylbenzene] + CCCCCCCC[N+](CC)(CC)CC.O=S(=O)(F)[N-]S(=O)(=O)F, the activity coefficient (318.15 K) stood at 1.1 ± 0.07; the activity coefficient (328.15 K) worked out at 1.18 ± 0.08; the activity coefficient (338.15 K) amounted to 1.26 ± 0.08; the activity coefficient (348.15 K) is 1.34 ± 0.09; the activity coefficient (358.15 K) stood at 1.43 ± 0.09; the activity coefficient (368.15 K) amounted to 1.51 ± 0.1.

Regarding `C#CCCC` [1-pentyne] + CCCCCCCC[N+](CC)(CC)CC.O=S(=O)(F)[N-]S(=O)(=O)F, the activity coefficient reads like this: (318.15 K) 1.48 ± 0.1; (328.15 K) 1.57 ± 0.1; (338.15 K) 1.66 ± 0.11; (348.15 K) 1.76 ± 0.12; (358.15 K) 1.85 ± 0.12; (368.15 K) 1.95 ± 0.13.

On to `C1CCCC1` [cyclopentane] + CCCCCCCC[N+](CC)(CC)CC.O=S(=O)(F)[N-]S(=O)(=O)F, for which the activity coefficient was found to be 4.01 ± 0.27 (318.15 K); 4 ± 0.27 (328.15 K); 4.01 ± 0.27 (338.15 K); 4 ± 0.27 (348.15 K); 4 ± 0.27 (358.15 K); 3.99 ± 0.27 (368.15 K).

Consider `CCCCCCCC` [octane] + CCCC[N+]1(C)CCCC1.O=S(=O)(F)[N-]S(=O)(=O)F, for which the activity coefficient (318.15 K) was 55.4 ± 3.8; the activity coefficient (328.15 K) worked out at 53 ± 3.6; the activity coefficient (338.15 K) is 50.9 ± 3.5; the activity coefficient (348.15 K) came out at 49 ± 3.4; the activity coefficient (358.15 K) turned out to be 47.2 ± 3.2; the activity coefficient (368.15 K) came to 45.6 ± 3.1.

In the case of `C1CCOC1` [tetrahydrofuran] + CCCCCCCC[N+](CC)(CC)CC.O=S(=O)(F)[N-]S(=O)(=O)F, the activity coefficient reads like this: (318.15 K) 0.599 ± 0.042; (328.15 K) 0.637 ± 0.044; (338.15 K) 0.674 ± 0.046; (348.15 K) 0.712 ± 0.047; (358.15 K) 0.75 ± 0.049; (368.15 K) 0.787 ± 0.051.

As to `C=COC(C)=O` [vinyl acetate] + CCCC[N+]1(C)CCCC1.O=S(=O)(F)[N-]S(=O)(=O)F, the activity coefficient was 1.29 ± 0.08 (318.15 K); 1.36 ± 0.09 (328.15 K); 1.43 ± 0.09 (338.15 K); 1.5 ± 0.1 (348.15 K); 1.57 ± 0.1 (358.15 K); 1.64 ± 0.11 (368.15 K).

In the case of `CCC(C)(C)C` [2,2-dimethylbutane] + CCCCCCCC[N+](CC)(CC)CC.O=S(=O)(F)[N-]S(=O)(=O)F, the activity coefficient by setting is: (318.15 K) 9.3 ± 0.63; (328.15 K) 9.14 ± 0.62; (338.15 K) 9.04 ± 0.62; (348.15 K) 8.93 ± 0.61; (358.15 K) 8.83 ± 0.6; (368.15 K) 8.77 ± 0.6.

As for `CCC(C)CC` [3-methylpentane] + CCCC[N+]1(C)CCCC1.O=S(=O)(F)[N-]S(=O)(=O)F, the activity coefficient reads like this: (318.15 K) 25.5 ± 1.7; (328.15 K) 24.9 ± 1.7; (338.15 K) 24.3 ± 1.7; (348.15 K) 23.8 ± 1.6; (358.15 K) 23.3 ± 1.6; (368.15 K) 22.8 ± 1.6.

As to `CCCO` [propan-1-ol] + CCCCCCCC[N+](CC)(CC)CC.O=S(=O)(F)[N-]S(=O)(=O)F, the activity coefficient was determined as 2.19 ± 0.15 (318.15 K); 2.07 ± 0.14 (328.15 K); 1.97 ± 0.13 (338.15 K); 1.88 ± 0.13 (348.15 K); 1.8 ± 0.12 (358.15 K); 1.72 ± 0.12 (368.15 K).

For `CCC(=O)CC` [pentan-3-one] + CCCC[N+]1(C)CCCC1.O=S(=O)(F)[N-]S(=O)(=O)F, the activity coefficient was found to be 1.01 ± 0.06 (318.15 K); 1.08 ± 0.07 (328.15 K); 1.16 ± 0.07 (338.15 K); 1.23 ± 0.08 (348.15 K); 1.31 ± 0.09 (358.15 K); 1.38 ± 0.09 (368.15 K).

On to `O` [water] + CCCCCCCC[N+](CC)(CC)CC.O=S(=O)(F)[N-]S(=O)(=O)F, for which the activity coefficient by setting is: (318.15 K) 4.94 ± 0.34; (328.15 K) 4.46 ± 0.3; (338.15 K) 4.05 ± 0.28; (348.15 K) 3.69 ± 0.25; (358.15 K) 3.39 ± 0.23; (368.15 K) 3.12 ± 0.21.

For `CC1CCCCC1` [methylcyclohexane] + CCCCCCCC[N+](CC)(CC)CC.O=S(=O)(F)[N-]S(=O)(=O)F, the activity coefficient amounted to 6.6 ± 0.45 (318.15 K); 6.53 ± 0.45 (328.15 K); 6.46 ± 0.44 (338.15 K); 6.41 ± 0.44 (348.15 K); 6.35 ± 0.43 (358.15 K); 6.3 ± 0.43 (368.15 K).

As for `C=COC(C)=O` [vinyl acetate] + CCCCCCCC[N+](CC)(CC)CC.O=S(=O)(F)[N-]S(=O)(=O)F, the activity coefficient turned out to be 0.953 ± 0.06 (318.15 K); 0.998 ± 0.062 (328.15 K); 1.05 ± 0.07 (338.15 K); 1.09 ± 0.07 (348.15 K); 1.13 ± 0.07 (358.15 K); 1.18 ± 0.08 (368.15 K).

`CCCCCO` [pentan-1-ol] + CCCC[N+]1(C)CCCC1.O=S(=O)(F)[N-]S(=O)(=O)F: the activity coefficient (318.15 K) amounted to 4.33 ± 0.29; the activity coefficient (328.15 K) came to 4.08 ± 0.28; the activity coefficient (338.15 K) came to 3.86 ± 0.26; the activity coefficient (348.15 K) is 3.67 ± 0.25; the activity coefficient (358.15 K) turned out to be 3.5 ± 0.24; the activity coefficient (368.15 K) came out at 3.33 ± 0.23.

As for `C=CCCCCC` [1-heptene] + CCCC[N+]1(C)CCCC1.O=S(=O)(F)[N-]S(=O)(=O)F, the activity coefficient turned out to be 17.5 ± 1.2 (318.15 K); 17.5 ± 1.2 (328.15 K); 17.4 ± 1.2 (338.15 K); 17.4 ± 1.2 (348.15 K); 17.3 ± 1.2 (358.15 K); 17.3 ± 1.2 (368.15 K).

For `CCCCCCCC` [octane] + CCCCCCCC[N+](CC)(CC)CC.O=S(=O)(F)[N-]S(=O)(=O)F, the activity coefficient stood at 14.7 ± 1 (318.15 K); 14.4 ± 1 (328.15 K); 14.1 ± 1 (338.15 K); 13.9 ± 1 (348.15 K); 13.7 ± 0.9 (358.15 K); 13.5 ± 0.9 (368.15 K).

As to `CCCCCCCCC` [nonane] + CCCC[N+]1(C)CCCC1.O=S(=O)(F)[N-]S(=O)(=O)F, the activity coefficient by setting is: (318.15 K) 79.3 ± 5.4; (328.15 K) 74.5 ± 5.1; (338.15 K) 70.4 ± 4.8; (348.15 K) 66.8 ± 4.6; (358.15 K) 63.6 ± 4.4; (368.15 K) 60.7 ± 4.2.

Source of the values: the NIST ThermoML archive (doi:10.1016/j.jct.2018.07.024).
